Anti-infective test results gathered from many reports (values: NIAID ChemDB through PubChem).

Shared fields: whole-cell or culture tests; organism: Mycobacterium tuberculosis

Blank or dashed fields: not listed here. Conditions beyond the fields shown may differ between rows. Percent inhibition refers to the dose given; in toxicity tests it is the harm to the cells. MIC50, MIC90 and the like: level of inhibition, or share of isolates inhibited. MIC bound comes from a single tested concentration. Fold resistance has wild type as its base. ECn: concentration that inhibits the pathogen or its effect by n%.

| structure | cells | endpoint | conditions | method | mutations | tested at | strain or isolate | value |
|---|---|---|---|---|---|---|---|---|
| Nc1nc(-c2ccccc2)c(N=Nc2cccc(Cl)c2)s1 |  | inhibition |  | BACTEC |  | 6.25 µg/mL | H37Rv | 66% |
| CCCCC(CC)CN1CN(CC(CC)CCCC)CC(C)(NCCN[C@H](CO)CC(C)C)C1 |  | MIC |  |  |  |  |  | 25 µM |
| COc1ccc(C(C)(C)C)cc1OC |  | MIC |  |  |  |  | H37Rv | >100 µg/mL |
| O=C(N/N=C/c1cccc(F)c1)c1ccncc1 |  | MBC |  |  |  |  | H37Rv | 0.8 µg/mL |
| O=C1C(O)=C(c2ccc(Br)cc2)C(=O)C(O)=C1c1ccc(Br)cc1 |  | MIC bound |  | BACTEC |  |  | H37Rv | >12.5 µg/mL |
| Cl.Nc1ccnc(Nc2ccccc2)n1 |  | MIC |  |  |  |  | H37Rv | >100 µg/mL |
| CC(C)C(N)C(=O)NC(CO)C(=O)O |  | inhibition |  | BACTEC |  | 12.8 µg/mL | H37Rv | 21% |
| CO[C@H]1/C=C/O[C@@]2(C)Oc3c(C)c(O)c4c(O)c(c(/C=N/N5CCN(C/C=C/c6ccccc6)CC5)c(O)c4c3C2=O)NC(=O)/C(C)=C\C=C\[C@H](C)[C@H](O)[C@@H](C)[C@@H](O)[C@@H](C)[C@H](OC(C)=O)[C@@H]1C |  | MIC |  |  |  |  | 2912 (rifampin-sensitive) | 0.05 µg/mL |
| C(CNC12CC3CC(CC(C3)C1)C2)NCC12CC3CC(CC(C3)C1)C2 |  | MIC |  |  |  |  |  | 18.8 µM |
| CSCC(C)S(=O)(=O)O |  | MIC |  |  |  |  | H37Rv | >100 µg/mL |
| c1ccc(CSc2ccccn2)cc1 |  | MIC |  |  |  |  | H37Ra | >12.8 µg/mL |
| NCC[C@H](O)C(=O)N[C@@H]1C[C@H](N)[C@@H](O[C@H]2O[C@H](CN)[C@@H](O)[C@H](O)[C@H]2O)[C@H](O)[C@H]1O[C@H]1O[C@H](CO)[C@@H](O)[C@H](N)[C@H]1O |  | MIC |  |  |  |  | 6R | 2.5 µg/mL |
| COc1ccc(CCc2cc(OC)c3ccccc3n2)cc1OC |  | MIC |  |  |  |  | MT6 | 19 µg/mL |
| FC(F)(F)c1ccc2cccnc2c1 |  | MIC |  |  |  |  | H37Rv | >100 µg/mL |
| CC(CNCC(c1ccccc1)c1ccccc1)NCCC(c1ccccc1)c1ccccc1 |  | MIC |  |  |  |  |  | 50 µM |
| CCOc1ccccc1CNCCNCc1ccc(OC(F)(F)F)cc1 |  | MIC |  |  |  |  |  | 50 µM |
| CC(NNC(=O)c1ccncc1)c1ccc(F)cc1 |  | MIC |  |  |  |  | H37Rv (rifampin-resistant) | 1.96 µg/mL |
| C[N+](C)(C)CC(=O)N/N=C(\C=C\c1ccccc1)CC1OC(=O)c2ccccc21.[Cl-] |  | inhibition |  | BACTEC |  | 12.5 µg/mL | H37Rv | -5% |
| Clc1ccc(CCNCCNCc2ccc3c(c2)OCO3)c(Cl)c1 |  | MIC |  |  |  |  |  | 50 µM |
| CN[C@@H]1[C@H](O[C@H]2[C@H](O[C@H]3[C@H](O)[C@@H](O)[C@H](N=C(N)N)[C@@H](O)[C@@H]3N=C(N)N)O[C@@H](C)[C@]2(O)C=O)O[C@@H](CO)[C@H](O)[C@H]1O |  | MIC |  |  |  |  | TN758 (P) | >2 µg/mL |
| CCCCCCCCCCCNCCNCCc1ccc(OC)cc1 |  | MIC |  |  |  |  |  | 25 µM |
| CN(C)CCC(=O)c1cccc([N+](=O)[O-])c1.Cl |  | MIC |  |  |  |  | H37Rv | 25 µg/mL |
| C[C@H](NC(=O)[C@@H]1CCCN1C(=O)OCc1ccccc1)C(=O)O |  | MIC bound |  | BACTEC |  |  | H37Rv | >12.5 µg/mL |
| COc1ccc2c(=O)n(-c3ccccc3)c(=O)oc2c1 |  | MIC |  |  |  |  | CNCTC MY331/88 | 16 µM |
| N#C[B][n+]1ccc(C(=O)NNCC(F)(F)F)cc1 | Macrophages | EC50 | inside macrophages | colony count |  |  | Erdman | <1.14 µg/mL |
| COc1ccccc1CCNCCNC(C)(C)CC(C)(C)C |  | MIC |  |  |  |  |  | 50 µM |
| Cl.c1cc(NCCCN2CCCCC2)ccn1 |  | MIC |  |  |  |  | H37Rv | >100 µg/mL |
| COc1cccc(Sc2ncccn2)c1 |  | MIC90 |  |  |  |  | H37Rv | >6.25 µg/mL |
| CCc1nc2ccccc2n1CCCCOc1ccccc1Cl |  | MIC90 |  | turbidity / fluorescence | Rv1339 V90M |  | H37Rv | 5.9 µM |
| NNC(=O)c1ccncc1 |  | MIC |  |  |  |  | PR410 | 0.63 µg/mL |
| O=C(NNCc1ccccc1)c1ccncc1 |  | MIC |  |  |  |  | Ethambutol-resistant | 0.2 µg/mL |
| Cc1cc(N2CCCC2)ccc1N.O=S(=O)(O)O |  | MIC |  |  |  |  | H37Rv | >100 µg/mL |
| CC1COc2c(N3CCN(C)CC3)c(F)cc3c(=O)c(C(=O)O)cn1c23 |  | MIC |  | BACTEC |  |  | 07-9206 | 0.5 µg/mL |
| CCCC(=O)OC[n+]1ccc2c(C)c3[nH]c4ccc(OC)cc4c3c(C)c2c1 |  | MIC bound |  | resazurin |  |  | H37Rv | <6.25 µg/mL |
| CCc1nc2ccc(C)cc2n1CCCCOc1ccccc1 |  | MIC90 |  | turbidity / fluorescence | QcrB M342T |  | H37Rv | 73 µM |
| CO[C@H]1/C=C/O[C@@]2(C)Oc3c(C)c(O)c4c(O)c(c5c(c4c3C2=O)NC2(CCN(CC(C)C)CC2)N=5)=NC(=O)/C(C)=C\C=C\[C@H](C)[C@H](O)[C@@H](C)[C@@H](O)[C@@H](C)[C@H](OC(C)=O)[C@@H]1C |  | MBC |  |  |  |  | 2242 (rifampicin-susceptible) | 0.125 µg/mL |
| NCCCCc1cccnc1 |  | MIC |  |  |  |  | H37Rv | 200 µg/mL |
| COc1ccc(CSc2ccccn2)cc1 |  | inhibition |  |  |  | 6.25 µg/mL | H37Rv | 0% |
| COc1ccc(CSC(=S)Nc2ccc(Cl)c(C(F)(F)F)c2)cc1 |  | inhibition |  | resazurin |  | 6.25 µg/mL | H37Rv | 11% |
| O=c1nc(SCc2cccc3ccccc23)c2[nH]cnc2[nH]1 |  | inhibition |  |  |  | 6.25 µg/mL | H37Rv | 43% |
| O=C1C=C(Nc2ccc(Br)cc2)c2ccccc2C1=O | VERO | MIC |  | resazurin |  |  | H37Rv | ≤0.1 µg/mL |
| CC(=O)NC[C@H]1CN(c2ccc(N3CCOCC3)c(F)c2)C(=O)O1 |  | MIC |  |  |  |  | Strain 32 | 0.5 µg/mL |
| COc1ccc(CCC#N)c(O)c1 |  | MIC |  |  |  |  | H37Rv | >100 µg/mL |
| CCCCCCCCCCCNCCNC1CCCCC1C |  | MIC |  |  |  |  |  | 50 µM |
| N=C(N)N=Nc1cc(O)c(NN=C(N)N)cc1O |  | MIC bound |  | BACTEC |  |  | H37Rv | >12.5 µg/mL |
| C[N+](C)(C)CC(=O)NN.[Cl-] |  | MIC |  |  |  |  | H37Rv | >100 µg/mL |
| Cc1ccc2oc(=O)n(-c3ccc(Cl)cc3)c(=O)c2c1 |  | MIC |  |  |  |  | CNCTC MY331/88 | 16 µM |
| C/C(=N\NC(=O)c1ccncc1)c1ccccc1F |  | MIC |  |  |  |  | H37Rv (thiacetazone-resistant) | >31.25 µg/mL |
| OCc1ccccc1Sc1ccccc1CNCCNCCC1=CCCCC1 |  | MIC |  |  |  |  |  | 12.5 µM |
| CC(=O)c1c(O)c(C)c(O)c2c1OC1=Cc3c(c(C)nn3-c3ccccc3)C(=O)C12C |  | inhibition |  | BACTEC |  | 12.5 µg/mL | H37Rv | 25% |
| Cc1ccccc1CSc1nc(=O)[nH]c2nc[nH]c12 |  | MIC |  |  |  |  | H37Ra | >12.8 µg/mL |
| O=c1oc2ccc(Br)cc2c(=O)n1-c1ccc(Cl)cc1 |  | MIC |  |  |  |  | CNCTC MY331/88 | 8 µM |
| COC(=S)Nc1ccc2c(c1)nc(-c1ccccc1)c1cc(NC(=S)OC)ccc12 |  | MIC bound |  | BACTEC |  |  | H37Rv | >12.5 µg/mL |
| CCCCCC1(c2ccccc2)OC(=O)NC1=O |  | MIC |  |  |  |  | H37Rv | >100 µg/mL |
| O=c1c(Br)cc2c(-c3ccccc3)c3cc(Br)c(O)c(Br)c3oc-2c1Br |  | MIC bound |  | BACTEC |  |  | H37Rv | >12.5 µg/mL |
| NNC(=O)c1ccncc1 |  | MIC |  | resazurin | INH resistant |  | Clinical isolate BRF 14 | 2 µg/mL |
| CO[C@H]1/C=C/O[C@@]2(C)Oc3c(C)c(O)c4c(O)c(c(/C=N/N5CCN(C)CC5)c(O)c4c3C2=O)NC(=O)/C(C)=C\C=C\[C@H](C)[C@H](O)[C@@H](C)[C@@H](O)[C@@H](C)[C@H](OC(C)=O)[C@@H]1C |  | MIC |  |  |  |  | 7S | 1 µg/mL |
| COc1ccc(/C=C/C(=O)c2ccc(OC)cc2O)cc1 |  | EC50 |  |  |  |  |  | >12.5 µg/mL |
| CC1(C)CC2CC(C)(CN2CCNCC(c2ccccc2)c2ccccc2)C1 |  | MIC |  |  |  |  |  | 37.5 µM |
| Cc1cc(=O)c2c(o1)C(=O)c1occc1C2=O |  | MIC bound |  | BACTEC |  |  | H37Rv | >12.5 µg/mL |
| CCCCCCCCCCCNCCNCCCCC |  | MIC |  |  |  |  |  | 50 µM |
| CCCCC(CC)CN1CN(CC(CC)CCCC)CC(C)(NCCNN2CCCC2)C1 |  | MIC |  |  |  |  |  | 50 µM |
| NC(=O)c1cnccn1 |  | MIC |  |  |  |  | Isolate K10552 | >100 µg/mL |
| COC(=O)C1CC23CC45CC6C(C)CN(CC7CC(OC(C)=O)(CC8=C2C1CC8)CC73C4OC(C)=O)C65O |  | MIC bound |  | BACTEC |  |  | H37Rv | >12.5 µg/mL |
| CCCCCCCCCCCCCCCCSCC(O)c1ccccc1 |  | MIC |  |  |  |  | H37Rv | >100 µg/mL |
| Nc1ccc(C(=O)/C=C/c2cccnc2N)cc1 |  | inhibition |  |  |  | 12.5 µg/mL | H37Rv | 0% |
| Cc1nn(C(=O)c2c(-c3ccccc3)noc2C)c(C)c1N=Nc1cc(C(F)(F)F)cc(C(F)(F)F)c1 |  | MIC bound |  | resazurin |  |  | H37Rv | >6.25 µg/mL |
| CCOC(=O)c1cccc(-c2ccccc2NC(C)=O)c1 |  | MIC |  |  |  |  | H37Rv | 100 µg/mL |
| C=CCNCCNCCC(c1ccccc1)c1ccccc1 |  | MIC |  |  |  |  |  | 50 µM |
| O=c1nc(SCc2ccncc2)c2[nH]cnc2[nH]1 |  | MIC |  |  |  |  | H37Ra | >12.8 µg/mL |
| O=C1CC(c2ccccc2)Oc2ccc(I)cc21 |  | inhibition |  |  |  | 12.5 µg/mL |  | 27% |
| CCN1CCCC(COC(=O)c2ccc(N)cc2)C1 |  | MIC |  |  |  |  | H37Rv | >100 µg/mL |
| CCc1nc2ccc(C)cc2n1CCCSc1ccc(OC)cc1 |  | fold resistance |  | turbidity / fluorescence | Rv1339 V90M |  | H37Rv | 1.5 |
| COc1ccc(/C=C/C(=O)c2cc(C(=O)O)ccc2O)cc1 |  | EC50 |  |  |  |  | H37Rv | >12.5 µg/mL |
| CCOC(=O)c1ccc(-n2c(=O)oc3ccc(Cl)cc3c2=O)cc1 |  | MIC |  |  |  |  | CNCTC MY331/88 | 16 µM |
| Cc1c2ccncc2c(C)c2c1[nH]c1ccc(Cl)cc12 |  | MIC |  | resazurin |  |  | H37Rv | 0.78 µg/mL |
| CC(C)c1ccc2c(c1)CC[C@H]1[C@](C)(CNCCN[C@@H]3C[C@@H]4C[C@H]([C@H]3C)C4(C)C)CCC[C@]21C |  | MIC |  |  |  |  |  | 50 µM |
| O=C(NNCc1ccccc1F)c1ccncc1 |  | MBC |  |  |  |  | H37Rv | >6.25 µg/mL |
| Cc1ccc(O)c(N)c1 |  | MIC |  |  |  |  | H37Rv | 50 µg/mL |
| CN1c2ccccc2CCC1CCc1ccc2c(c1)OCO2 |  | MIC |  |  |  |  | MT6 | >100 µg/mL |
| Cc1cc(=O)n(-c2ccc3ccccc3n2)[nH]1 |  | MIC |  |  |  |  | H37Rv | >100 µg/mL |
| Cc1ccc(Sc2ccncc2)cc1 |  | inhibition |  |  |  | 6.25 µg/mL | H37Rv | 0% |
| CCc1nc2ccccc2n1CCCCOc1ccc(C)c(Cl)c1 |  | MIC90 |  | turbidity / fluorescence | Rv1339 V90M |  | H37Rv | 2.1 µM |
| COc1ccccc1CCNCCNCCCCc1ccccc1 |  | MIC |  |  |  |  |  | 25 µM |
| Cc1ccc(C)c(Sc2ccncc2)c1 |  | inhibition |  |  |  | 6.25 µg/mL | H37Rv | 4% |
| CCOc1ccc2c(c1)n([O-])c1cc(Cl)ccc1[n+]2=O |  | MIC |  |  |  |  | INH-r | 3.1 µg/mL |
| NC(=S)c1ccccc1 |  | MIC |  |  |  |  | H37Rv | 25 µg/mL |
| CC1(C)CN(CCO)C(C)(C)CN1CCO |  | inhibition |  | BACTEC |  | 12.8 µg/mL | H37Rv | 10% |
| CO[C@H]1/C=C/O[C@@]2(C)Oc3c(C)c(O)c4c(=O)c(c5oc6cc(N7CCN(C(C)C)CC7)cc(=O)c6nc5c4c3=C2O)NC(=O)/C(C)=C\C=C\[C@H](C)[C@H](O)[C@@H](C)[C@@H](O)[C@@H](C)[C@H](OC(C)=O)[C@@H]1C |  | MBC |  |  |  |  | 2275 (rifampin-resistant) | 0.8 µg/mL |
| CCCCC(CC)CN1CN(CC(CC)CCCC)CC(C)(NCCNCCc2ccc(OC)cc2)C1 |  | MIC |  |  |  |  |  | 12.5 µM |
| NNC(=O)c1ccccc1O |  | MIC |  |  |  |  | H37Rv | 100 µg/mL |
| COc1c(N2CCNC(C)C2)c(F)cc2c(=O)c(C(=O)O)cn(C3CC3)c12 |  | MIC |  |  |  |  | Strain 361 | 0.25 µg/mL |
| CCNCc1cc(Nc2nc(NC3CCC(N(C)C)CC3)c3ccccc3n2)ccc1OC.Cl.Cl.Cl |  | inhibition |  | resazurin |  | 6.25 µg/mL | H37Rv | 18% |
| Nc1nccc(Nc2ccc([As](SCC(=O)[O-])SCC(=O)[O-])cc2)n1.[Na+].[Na+] |  | MIC |  |  |  |  | H37Rv | >100 µg/mL |
| Cc1ccc2c(c1)c(=O)c1c(NCCN(C)C)ccc3nnn2c31 |  | MIC bound |  | BACTEC |  |  | H37Rv | ≤12.5 µg/mL |
| CCc1ccc(O)cc1O |  | MIC |  |  |  |  | H37Rv | 25 µg/mL |